{"source": "patent US20130209515A1", "about": "“ANTI-INFECTIVE AND IMMUNOMODULATORY COMPOUNDS” (priority 2005, published 2013)", "note": "“Also recorded” adds a separate entry of the source.", "data": [{"test_system": "P. aeruginosa cultures", "test": "MS determination of AA analog concentration in bacterial cultures", "parameters": "species or system Pseudomonas aeruginosa", "conditions": "P. aeruginosa cultures in LB (FIG. 23C)", "values": [{"smiles": "Nc1cc(Cl)ccc1C(=O)O", "note": "[4-CABA, 4-chloro-2-aminobenzoic acid]", "depletion of compound from bacterial cultures (catabolic stability)": "actively catabolized"}, {"smiles": "Nc1cccc(Cl)c1C(=O)O", "note": "[6-CABA, 6-chloro-2-aminobenzoic acid]", "depletion of compound from bacterial cultures (catabolic stability)": "slowly depleted; also recorded: stable"}, {"smiles": "Nc1cccc(F)c1C(=O)O", "note": "[6-FABA, 6-fluoro-2-aminobenzoic acid]", "depletion of compound from bacterial cultures (catabolic stability)": "actively catabolized"}]}]}
